PubChem BioAssay AID1259414, Drosophila RNAi Screening Center, 2018
In all, the deposit lists about 24,000 reagents; below is a random part of those with a known target gene and a result. In the full data, about 1,210 (5%) got an active call. 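Inactive calls also include excluded dsRNAs with several or no targets, genes unexpressed in JW18, and well A1, regardless of score.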 Entries without a mark were called inactive.

Screen: 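Genome-wide screen for host control of endosymbiont load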 (primary screen)
System: Drosophila JW18 cells infected with Wolbachia
Knock-down reagent: long dsRNA against Drosophila genes, 0.25 µg dsRNA per well of a 384-well plate
Time to read-out: 5 days
Conditions: cells persistently infected with Wolbachia before knock-down; no added drug
Detection: 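Imaged fluorescence in situ signal for Wolbachia 23S rRNA per DAPI-counted host cell, given as a robust z-score within each plate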
Direction: Wolbachia per cell robust z: higher = more Wolbachia per host cell than the plate typical
Rule for the call: 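Active if absolute robust z reaches 1.5 in two or more of three replicates, leaving out multi- or no-target dsRNAs, genes unexpressed in JW18 and A1 wells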

| gene knocked down | DRSC id | Wolbachia per cell robust z, rep 1 | Wolbachia per cell robust z, rep 2 | Wolbachia per cell robust z, rep 3 |
| --- | --- | --- | --- | --- |
| Srp14 | DRSC15797 | -0.486 | -1.76 | -0.554 |
| CG12926 | DRSC06239 | -0.0919 | -6.53 | 0.00529 |
| CG12926 | DRSC21930 | -2.31 (active) | -1.76 | -0.571 |
| CG45263 | DRSC14359 | -0.817 | 0.891 | -0.0571 |
| CG45263 | DRSC14360 | 1.21 | -0.308 | -0.4 |
| CG45263 | DRSC14361 | -0.0575 | -1.16 | 0.26 |
| CG45263 | DRSC14363 | -0.889 | 1.61 | -0.0388 |
| CG45263 | DRSC24974 | -0.93 | -0.393 | -1.38 |
| CG45263 | DRSC40568 | -2.5 | 0.431 | 0.0298 |
| CG31800 | DRSC22525 | -0.104 | 0.55 | 0.375 |
| CG31800 | DRSC29916 | 1.13 | 0.449 | 0.927 |

The list goes on; the last 3 above are carried over.
| gene knocked down | DRSC id | Wolbachia per cell robust z, rep 1 | Wolbachia per cell robust z, rep 2 | Wolbachia per cell robust z, rep 3 |
| --- | --- | --- | --- | --- |
| CG45263 | DRSC40568 | -2.5 | 0.431 | 0.0298 |
| CG31800 | DRSC22525 | -0.104 | 0.55 | 0.375 |
| CG31800 | DRSC29916 | 1.13 | 0.449 | 0.927 |
| Jon25Bi | DRSC03434 | -0.0341 | -0.274 | -0.246 |
| Jon25Bi | DRSC25181 | -2.09 | 0.312 | -1.2 |
| CAH8 | DRSC15784 | -0.585 | -0.502 | -1.7 |
| CG31178 | DRSC14590 | -1.96 | -0.243 | -1.57 |
| toc | DRSC00169 | -0.0871 | 0.0816 | 0.556 |
| toc | DRSC00171 | -1.66 (active) | -1.52 | -2.46 |
| toc | DRSC00842 | -2.06 | -0.661 | -0.321 |
| toc | DRSC40842 | -0.314 | -0.762 | -0.264 |
| glo | DRSC16145 | 0.354 | 0.808 | 1.9 |
| glo | DRSC27807 | -1.02 | 1.38 | 1.02 |
| fzo | DRSC16954 | -0.798 | -1.31 | -0.597 |
| egr | DRSC06233 | -2.99 (active) | 0.516 | -2.24 |
| cpa | DRSC04080 | 0.332 | 0.83 | 0.956 |
| CG32832 | DRSC01562 | 1.38 | 1.3 | 0.426 |
| Ekar | DRSC17161 | -1.71 | -0.315 | -0.673 |
| Ekar | DRSC24931 | -0.191 | -0.549 | -0.368 |
| ec | DRSC18658 | -5.21 | -1.66 | -0.732 |
| ec | DRSC23902 | -0.0168 | 1.02 | 0.907 |
